Assay results reported in patent publication US20220002279A1, “NOVEL IMIDAZOLE DERIVATIVE” (priority 2018, published 2022).
≈ marks a conversion by molar mass, not a printed value.

Amino acid sequences for entries named in this document (tags omitted).
UniProt P0A725, whole entry: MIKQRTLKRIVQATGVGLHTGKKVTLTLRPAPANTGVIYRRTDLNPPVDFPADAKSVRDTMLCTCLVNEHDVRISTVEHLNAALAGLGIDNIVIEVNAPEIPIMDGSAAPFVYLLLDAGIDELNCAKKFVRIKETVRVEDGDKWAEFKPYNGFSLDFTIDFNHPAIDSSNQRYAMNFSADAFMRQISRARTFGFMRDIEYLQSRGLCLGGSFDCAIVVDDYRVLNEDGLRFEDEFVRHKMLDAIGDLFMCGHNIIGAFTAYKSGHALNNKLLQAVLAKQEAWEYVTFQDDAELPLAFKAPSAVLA

Columns and labels:
[1] = biological target: Escherichia coli LpxC enzyme (Escherichia coli, UniProt P0A725); test: Inhibitory activity on Escherichia coli LpxC enzyme (fluorescamine method); conditions: read-out: IC50 (inhibitory activity on Escherichia coli LpxC enzyme, Fluoresamine method); fluorescamine detection; 3.1 nmol/L enzyme, 20 μmol/L substrate, pH 6.5, 120 min
[2] = system: Escherichia coli strain ATCC25922; test: Antimicrobial activity, MIC by broth microdilution; conditions: cation-adjusted Mueller-Hinton broth, about 5×10^5 CFU/mL, 35° C., about 18 hours
Description: (§1) Test Example 4 Evaluation of the Antimicrobial Activity
(§2) For minimum inhibitory concentration (MIC) measurement, the following broth microdilution method was applied as adapted from the standard procedure recommended by the CLSI (Clinical and Laboratory Standards Institute).
(§3) The bacteria used were Pseudomonas aeruginosa strain ATCC27853, Escherichia coli strain ATCC25922, and Klebsiella pneumoniae strain ATCC13883. After culture overnight on a heart infusion agar medium, the cells of a test bacterium were scraped off, and a bacterial solution suspended to have a turbidity of level 0.5 on the McFarland scale was diluted and used as an inoculum solution. The inoculum solution was inoculated in a cation-adjusted Mueller-Hinton broth medium containing a test compound so that the final inoculation concentration was about 5×10^5 CFU/mL, and cultured at 35° C. for about 18 hours. A minimum drug concentration at which no cell growth was visible to the naked eye was designated as MIC. […] In the table, ND represents the case where suppression of the cell growth in a drug concentration-dependent manner was not observed (Not Determined), and NT represents that no test was conducted (Not Tested).

[3] = system: Klebsiella pneumoniae strain ATCC13883; test: Antimicrobial activity, MIC by broth microdilution; conditions: cation-adjusted Mueller-Hinton broth, about 5×10^5 CFU/mL, 35° C., about 18 hours
Description: as §1, §2, §3

[4] = system: Pseudomonas aeruginosa strain ATCC27853; test: Antimicrobial activity, MIC by broth microdilution; conditions: cation-adjusted Mueller-Hinton broth, about 5×10^5 CFU/mL, 35° C., about 18 hours
Description: as §1, §2, §3

C[C@H](O)c1nccn1Cc1cc(-c2ccc(C#CC3(NC=O)CC3)cc2)on1
IC50 [1]: 685 nM
MIC Escherichia coli ATCC25922 [2]: 8 µg/mL (≈ 21.3 µM)
MIC Klebsiella pneumoniae ATCC13883 [3]: 16 µg/mL (≈ 42.5 µM)
MIC Pseudomonas aeruginosa ATCC27853 [4]: >128 µg/mL
